Laboratory results reported in US20170128489A1 (priority 2014, published 2017).

What was measured:
[1] = target: influenza A M2 channels (A/Udorn/72, S31N mutant) (Influenza A virus, UniProt P0DOF5, S31N); type: cell-based; details: pH 5.3
[2] = target: M2 (22-62, S31N) (Influenza A virus, UniProt P0DOF5, S31N); type: biochemical

Row | Substance | EC50 [1] | EC50 [2]
1 | Copper N-(1-cyclooctyl)iminoacetate acetylacetonate [CO-IMA-Cu-ACAC] | 64 µM | –
2 | Zinc cyclooctylimidodiacetamide [CO-IDAm-Zn] | 137 µM | –
3 | Copper cyclooctylimidodiacetamide [CO-IDAm-Cu] | 37 µM | –
4 | Copper N-(1-adamantyl)iminoacetate acetylacetonate [Amt-IMA-Cu-ACAC] | 57 µM | 4.5 µM
